Measured values from several laboratories, pooled; numbers as filed in NIAID ChemDB.

Common to all: whole-cell or culture tests; organism: Mycobacterium kansasii

Conditions beyond the fields shown may differ between rows. A number after MIC or MFC names an inhibition level or a share of isolates.

{"structure": "CC(C)[C@H](NC(=O)OCc1ccccc1)c1cnc(-c2ccc([N+](=O)[O-])cc2)[nH]1", "read-out": "MIC", "setting": "21 d", "strain or isolate": "My 6509/96", "value": "32 µM"}
{"structure": "O=C(Oc1cc(Cl)ccc1C(=O)Nc1ccc(Br)cc1)c1cnccn1", "read-out": "MIC", "setting": "21 d", "strain or isolate": "235/80", "value": "4 µM"}
{"structure": "CC(C)[C@H](NC(=O)OCc1ccccc1)c1cnc(-c2ccccc2)[nH]1", "read-out": "MIC", "setting": "7 d", "strain or isolate": "My 235/80", "value": "62.5 µM"}
{"structure": "O=C(Oc1ccc(Cl)cc1C(=O)Nc1cccc(F)c1)c1cnccn1", "read-out": "MIC", "setting": "7 d", "strain or isolate": "6509/96", "value": "4 µM"}
{"structure": "Cc1ccc2oc(=O)n(-c3ccc(F)cc3)c(=S)c2c1", "read-out": "MIC", "setting": "21 d", "strain or isolate": "6509/96", "value": "8 µM"}
{"structure": "O=C(Nc1cccc(Br)c1)c1ccc(Cl)cc1OS(=O)(=O)c1ccccc1", "read-out": "MIC", "setting": "21 d", "strain or isolate": "6509/96", "value": "125 µM"}
{"structure": "N/C(=N\\N=C\\c1ccccc1)SCc1ccc(C(F)(F)F)cc1", "read by": "broth dilution", "read-out": "MIC", "setting": "21 d", "strain or isolate": "ATCC 12478", "value": "62.5 µM"}
{"structure": "O=C(OCc1ccccc1)N1CCC[C@H]1c1cnc(-c2ccccc2)[nH]1", "read-out": "MIC", "setting": "21 d", "strain or isolate": "My 235/80", "value": "62.5 µM"}
{"structure": "O=C(Oc1ccc(Cl)cc1C(=O)Nc1cccc(Cl)c1)c1cnccn1", "read-out": "MIC", "setting": "7 d", "strain or isolate": "6509/96", "value": "2 µM"}
{"structure": "O=c1oc2ccc(Br)cc2c(=S)n1-c1ccc(Cl)c(Cl)c1", "read-out": "MIC", "setting": "21 d", "strain or isolate": "6509/96", "value": "8 µM"}
{"structure": "O=C(Nc1cccc(F)c1)c1ccc(Cl)cc1OS(=O)(=O)c1ccccc1", "read-out": "MIC", "setting": "14 d", "strain or isolate": "6509/96", "value": "32 µM"}
{"structure": "O=C(Oc1cc(Cl)ccc1C(=O)Nc1cccc(Br)c1)c1cnccn1", "read-out": "MIC", "setting": "21 d", "strain or isolate": "6509/96", "value": "4 µM"}
{"structure": "O=C(Nc1cccc(C(F)(F)F)c1)c1cc(Cl)ccc1OS(=O)(=O)c1ccccc1", "read-out": "MIC", "setting": "14 d", "strain or isolate": "6509/96", "value": "16 µM"}
{"structure": "N/C(=N\\N=C\\c1ccccc1)SCc1ccccc1", "read by": "broth dilution", "read-out": "MIC", "setting": "21 d", "strain or isolate": "6509/96", "value": "125 µM"}
{"structure": "COc1ccc2oc(=O)n(-c3ccccc3)c(=S)c2c1", "read-out": "MIC", "setting": "14 d", "strain or isolate": "6509/96", "value": "8 µM"}
{"structure": "CCCCCc1ccc(NC(=O)NNC(=O)c2ccncc2)cc1", "read by": "broth dilution", "read-out": "MIC100", "setting": "14 d", "strain or isolate": "My 6509/96", "value": "62.5 µM"}
{"structure": "O=C(Oc1ccc(Cl)cc1C(=O)Nc1ccc(Br)cc1)c1ccccc1", "read by": "broth dilution", "read-out": "MIC", "setting": "7 d", "strain or isolate": "235/80", "value": "2 µM"}
{"structure": "O=C(Nc1ccc(Cl)cc1)c1cc(Cl)ccc1OS(=O)(=O)c1ccccc1", "read-out": "MIC", "setting": "14 d", "strain or isolate": "235/80", "value": "8 µM"}
{"structure": "C[C@@H](NC(=O)OCc1ccccc1)c1cnc(-c2ccccc2)[nH]1", "read-out": "MIC", "setting": "7 d", "strain or isolate": "My 6509/96", "value": "62.5 µM"}
{"structure": "O=C(Nc1ccc(Cl)cc1)c1ccc(Cl)cc1OS(=O)(=O)c1ccccc1", "read-out": "MIC", "setting": "7 d", "strain or isolate": "235/80", "value": "8 µM"}
{"structure": "O=C(NNC(=O)c1ccncc1)Nc1ccc(C(F)(F)F)cc1", "read by": "broth dilution", "read-out": "MIC100", "setting": "7 d", "strain or isolate": "My 6509/96", "value": "125 µM"}
{"structure": "N/C(=N\\N=C\\c1ccccc1O)SCc1ccc(Br)cc1", "read by": "broth dilution", "read-out": "MIC", "setting": "21 d", "strain or isolate": "6509/96", "value": "32 µM"}
{"structure": "CCCCCCCNC(=O)NNC(=O)c1ccncc1", "read by": "broth dilution", "read-out": "MIC100", "setting": "21 d", "strain or isolate": "My 6509/96", "value": "125 µM"}
{"structure": "O=C(Oc1ccc(Cl)cc1C(=O)Nc1ccc(Cl)cc1)c1cnccn1", "read-out": "MIC", "setting": "7 d", "strain or isolate": "6509/96", "value": "1 µM"}
{"structure": "CC(C)C[C@H](NC(=O)OCc1ccccc1)c1cnc(-c2ccccc2)[nH]1", "read-out": "MIC", "setting": "14 d", "strain or isolate": "My 235/80", "value": "500 µM"}
{"structure": "O=C(Nc1ccc(Cl)c(Cl)c1)c1cc(Cl)ccc1OS(=O)(=O)c1ccccc1", "read-out": "MIC", "setting": "14 d", "strain or isolate": "235/80", "value": "8 µM"}
{"structure": "COc1ccc2oc(=O)n(-c3ccc(Br)cc3)c(=S)c2c1", "read-out": "MIC", "setting": "14 d", "strain or isolate": "6509/96", "value": "32 µM"}
{"structure": "O=C(Oc1cc(Cl)ccc1C(=O)Nc1ccc(F)cc1)c1ccccc1", "read by": "broth dilution", "read-out": "MIC", "setting": "7 d", "strain or isolate": "6509/96", "value": "4 µM"}
{"structure": "O=C(Oc1ccc(Cl)cc1C(=O)Nc1ccc(F)cc1)c1cnccn1", "read-out": "MIC", "setting": "7 d", "strain or isolate": "6509/96", "value": "4 µM"}
{"structure": "S=c1oc2ccc(Br)cc2c(=S)n1-c1ccc(Br)cc1", "read-out": "MIC", "setting": "21 d", "strain or isolate": "6509/96", "value": "4 µM"}
{"structure": "O=C(Oc1cc(Cl)ccc1C(=O)Nc1cccc(Br)c1)c1ccccc1", "read by": "broth dilution", "read-out": "MIC", "setting": "14 d", "strain or isolate": "6509/96", "value": "4 µM"}
{"structure": "N/C(=N\\N=C\\c1ccccc1)SCc1ccc(Br)cc1", "read by": "broth dilution", "read-out": "MIC", "setting": "14 d", "strain or isolate": "6509/96", "value": "32 µM"}
{"structure": "NC(=O)c1cnccn1", "read-out": "MIC", "setting": "14 d", "strain or isolate": "6509/96", "value": "1000 µM"}
{"structure": "N/C(=N\\N=C\\c1ccccc1O)SCc1ccc(Cl)cc1", "read by": "broth dilution", "read-out": "MIC", "setting": "21 d", "strain or isolate": "ATCC 12478", "value": "62.5 µM"}
{"structure": "O=C(Nc1cccc(Cl)c1)c1cc(Cl)ccc1OS(=O)(=O)c1ccccc1", "read-out": "MIC", "setting": "7 d", "strain or isolate": "235/80", "value": "8 µM"}
{"structure": "N/C(=N\\N=C\\c1cc(Cl)ccc1O)SCc1ccc(F)cc1", "read by": "broth dilution", "read-out": "MIC", "setting": "21 d", "strain or isolate": "6509/96", "value": "32 µM"}
{"structure": "O=C(Oc1ccc(Cl)cc1C(=O)Nc1cccc(C(F)(F)F)c1)c1cnccn1", "read-out": "MIC", "setting": "21 d", "strain or isolate": "235/80", "value": "8 µM"}
{"structure": "O=C(Oc1cc(Cl)ccc1C(=O)Nc1ccc(C(F)(F)F)cc1)c1ccccc1", "read by": "broth dilution", "read-out": "MIC", "setting": "21 d", "strain or isolate": "235/80", "value": "4 µM"}
{"structure": "C[C@H](NC(=O)OCc1ccccc1)c1cnc(-c2ccccc2)[nH]1", "read-out": "MIC", "setting": "21 d", "strain or isolate": "My 235/80", "value": "250 µM"}
{"structure": "Cc1ccc(NC(=O)NNC(=O)c2ccncc2)cc1", "read by": "broth dilution", "read-out": "MIC100", "setting": "14 d", "strain or isolate": "My 235/80", "value": "125 µM"}
{"structure": "O=C(Oc1ccc(Cl)cc1C(=O)Nc1cccc(Cl)c1)c1ccccc1", "read by": "broth dilution", "read-out": "MIC", "setting": "14 d", "strain or isolate": "6509/96", "value": "4 µM"}